Measured values from several laboratories, pooled; numbers as filed in NIAID ChemDB.

All rows: growth or infection tests; organism: Mycobacterium tuberculosis

Percent inhibition refers to the dose given; in toxicity tests it is the harm to the cells.

| SMILES | read-out | setting | changes | tested at | read by | strain or isolate | result |
|---|---|---|---|---|---|---|---|
| O=C(CSc1nnc(-c2ccc3ncccc3c2)o1)Nc1nc2ccc(I)cc2s1 | MIC |  |  |  | agar | H37Rv | 200 µg/mL |
| Cl.O=C(O)CNCCN1CC(=O)N(Cc2ccccc2)C1=S | MIC bound |  |  |  | BACTEC | H37Rv | >12.5 µg/mL |
| Cc1csc(=Nc2ccc(OCCC(C)C)cc2)n1-c1ccc(OCCC(C)C)cc1 | MIC |  |  |  |  | H37Rv | 16 µg/mL |
| Cc1c(/C=C2/CC/C(=C/c3[nH]c(C(=O)OC(C)(C)C)c(C)c3C)C2=O)[nH]c(C(=O)OC(C)(C)C)c1C | MIC bound |  |  |  | BACTEC | H37Rv | >12.5 µg/mL |
| CCCC(=O)Oc1cccc2c1C(=O)C=C(C)C2=O | MIC |  |  |  | resazurin | H37Rv | 77.4 µM |
| CC1=C(O)C(C)SC1=O | MIC |  |  |  |  | H37Rv | 500 µM |
| O=C1CS[C@H](c2ccc(Cl)cc2)N1c1nc(N2CCOCC2)n[nH]1 | MIC |  |  |  | resazurin | H37Rv | 1.56 µg/mL |
| Cc1ccc(N=Nc2c(C)[nH]n(C(=O)c3sc4ccc(Cl)cc4c3Cl)c2=O)c(C)c1 | inhibition |  |  | 40 µg/mL | agar diffusion / agar |  | 18% |
| CCOC(=O)c1cc(Br)c(-c2onc(C)c2Br)n1C | MIC bound |  |  |  | BACTEC | H37Rv | >6.25 µg/mL |
| Cc1nn(-c2ccccc2)c2c1C(c1ccc(Cl)cc1)c1c(nc(=O)[nH]c1N)O2 | inhibition |  |  | 62.5 µg/mL |  | H37Rv | 44% |
| NC1CON(CCO)C1=O | MIC |  |  |  |  |  | >2500 µM |
| CCCCCOc1ccc(N=c2scc(C)n2-c2ccc(OCCCCC)cc2)cc1 | MIC |  |  |  |  | H37Rv | >125 µg/mL |
| COc1ccc(N=Nc2sc(N)nc2-c2ccccc2)cc1 | inhibition |  |  | 6.25 µg/mL | BACTEC | H37Rv | 30% |
| O=C(CSc1nnc(-c2ccc3ncccc3c2)o1)Nc1ccc([N+](=O)[O-])cc1 | MIC |  |  |  | agar | H37Rv | 62.5 µg/mL |
| COc1cc(C2OC(c3sc4ccc(Cl)cc4c3Cl)=NN2C(C)=O)ccc1O | inhibition |  |  | 40 µg/mL | agar diffusion / agar |  | 5% |
| CCC(C)CCOc1ccc(N=C2SCC(=O)N2c2ccc(OCCC(C)CC)cc2)cc1 | MIC |  |  |  |  | H37Rv | 32 µg/mL |
| Cc1nn(-c2ccccc2)c2c1C(c1ccccc1)C(C#N)=C(N)O2 | inhibition |  |  | 62.5 µg/mL |  | H37Rv | 21% |
| NC1CON(CCCO)C1=O | MIC |  |  |  |  |  | >2500 µM |
| CCc1ccc(N=c2scc(CCN3CCCCC3)n2-c2ccc(CC)cc2)cc1 | MIC |  |  |  |  | H37Rv | 125 µg/mL |
| O=C(O)C1CCC(C(=O)O)SS1 | MIC |  |  |  | BACTEC | H37Rv | ≥12.5 µg/mL |
| Cc1cc(O)c(C(C)C)cc1N1C(=O)CSC1c1ccc(O)cc1 | inhibition |  |  | 100 µg/mL |  | H37Rv | inactive |
| CN1[C@@H]2CC(OC(=O)[C@H](CO)c3ccccc3)C[C@H]1[C@@H]1O[C@@H]12 | inhibition |  |  | 12.8 µg/mL | BACTEC | H37Rv | -1% |
| COC(=O)C(C)N1OCC(N)C1=O | MIC |  |  |  |  |  | >2500 µM |
| Cc1ccc(NC(=O)CSc2nnc(-c3ccc4ncccc4c3)o2)cc1 | MIC |  |  |  | agar | H37Rv | 250 µg/mL |
| CCC(=O)Nc1ccc2cc(-c3cc(C(=O)O)ccc3CN(C)C3CCCCC3)c(=O)oc2c1 | MIC |  |  |  | resazurin | H37Rv | 8 µg/mL |
| CCCCCCCCCCCCCCCCNC(=S)N=Nc1cc(C(C)C)c(NNC(=S)NCCCCCCCCCCCCCCCC)cc1C | MIC bound |  |  |  | BACTEC | H37Rv | >12.5 µg/mL |
| CCc1nc2ccc(Cl)cn2c1C(=O)NCc1ccc(N2CCC(c3ccc(OC(F)(F)F)cc3)CC2)cc1 | MIC50 |  |  |  | resazurin | H37Rv | 0.00145 µM |
| Cc1cc(NS(=O)(=O)c2ccc(Nc3c4ccccc4nc4c(C(=O)N5CCN(CCO)CC5)cccc34)cc2)no1 | inhibition |  |  | 12.5 µg/mL | BACTEC | H37Rv | 12% |
| Cc1nn(-c2ccccc2)c2c1C(c1ccccc1)c1c(nc(=O)[nH]c1N)O2 | inhibition |  |  | 62.5 µg/mL |  | H37Rv | 8% |
| CC(=O)Nc1ccc(/C=N/NC(N)=S)cc1 | MIC |  |  |  |  | Isolate A drug-susceptible | 15 µg/mL |
| NC1CON(Cc2ccccc2)C1=O | MIC |  |  |  |  |  | >2500 µM |
| COc1ccc(C2CC(=O)c3c(cc(OC)c(OC)c3OC)O2)cc1 | MIC |  |  |  |  | H37Ra | >581.4 µM |
| Cc1nn(-c2ccccc2)c2c1C(c1cccc(Cl)c1)c1c(nc(=S)[nH]c1N)O2 | inhibition |  |  | 62.5 µg/mL |  | H37Rv | 45% |
| CO[C@@H]1[C@@H](OC(=O)c2ccc(C)[nH]2)[C@@H](O)C(Oc2ccc3c(O)c(NC(=O)c4c[nH]c(C(=O)Nc5c(O)c6ccc(OC7OC(C)(C)[C@H](OC)[C@@H](OC(=O)c8ccc(C)[nH]8)[C@H]7O)c(C)c6oc5=O)c4C)c(=O)oc3c2C)OC1(C)C | inhibition |  |  | 12.8 µg/mL | BACTEC | H37Rv | 99% |
| CC(C)=CCC1(C)SC(=O)C(C)=C1O | MIC |  |  |  |  | H37Rv | >1000 µM |
| COc1c(OCC=C(C)C)c2occc2c2oc(=O)ccc12 | EC50 |  |  |  | resazurin | H37Ra | 8.2 µg/mL |
| Cc1ccc([C@H]2SC(C)C(=O)N2c2nc(N3CCN(C)CC3)n[nH]2)cc1 | MIC |  |  |  | resazurin | H37Rv | <1 µg/mL |
| CC(=O)c1ccc(O)c(-c2csc(N/N=C(\C)c3cccnc3)n2)c1 | EC50 |  |  |  | resazurin | H37Rv (ATCC 27294) | >100 µg/mL |
| CCC1NC(=O)C(NC(=O)c2ncccc2O)C(C)OC(=O)C(c2ccccc2)NC(=O)C2CC(=O)CCN2C(=O)C(Cc2ccccc2)N(C)C(=O)C2CCCN2C1=O | MIC bound |  |  |  | BACTEC | H37Rv | >12.5 µg/mL |
| NC1CON(CC(=O)O)C1=O | MIC |  |  |  |  |  | >2500 µM |
| CCCCCC/C(CC(=O)CCC(=O)NCCc1ccccc1)=N/NC(=O)c1ccc2ccccc2c1O | MIC bound |  |  |  | BACTEC | H37Rv | >12.5 µg/mL |
| COC(=O)CN1OCC(N)C1=O | MIC |  |  |  |  |  | >2500 µM |
| Oc1ccc(N=Cc2ccccc2O)cc1 | inhibition |  |  | 100 µg/mL |  | H37Rv | inactive |
| CCCCCCOC(=O)c1cnccn1 | MIC90 | pH 6.0 | Pyrazinamide-resistant |  | resazurin |  | >480 µM |
| CC(C)CCOc1ccc(N=c2scc(CCN3CCCCC3)n2-c2ccc(OCCC(C)C)cc2)cc1 | MIC |  |  |  |  | H37Rv | 24 µg/mL |
| COc1cc(/C=C2/CN(C)CC3=C2NC(=S)NC3c2cc(OC)c(OC)c(OC)c2)cc(OC)c1OC.Cl | MIC bound |  |  |  | BACTEC | H37Rv | >12.5 µg/mL |
| CCCCC[C@@]1(C(=O)CCC)CC[C@@]2(c3ccccc3)ON12 | MIC |  |  |  |  | H37Ra | 100 µg/mL |
| COC(=O)[C@@H]1[C@H](O)[C@H](C)C(O)[C@H](C)/C=C\C=C(/C)C(=O)Nc2c(C)c(OC(C)=O)c3c(c2O)C(=O)C(C)=C2OCOC(=C23)/C(C)=C/[C@@](C)(O)[C@H](O)[C@@H](C)[C@H]1OC(C)=O | MIC bound |  |  |  | BACTEC | H37Rv | ≤12.8 µg/mL |
| CC1S[C@H](c2ccc(Cl)cc2)N(c2nc(N3CCOCC3)n[nH]2)C1=O | MIC |  |  |  | resazurin | H37Rv | <6.25 µg/mL |
| N#Cc1ccc2nc(NC(=O)CSc3nnc(-c4ccc5ncccc5c4)o3)sc2c1 | MIC |  |  |  | agar | H37Rv | 200 µg/mL |
| COc1c2ccoc2c(OC)c2oc(=O)ccc12 | EC50 |  |  |  | resazurin | H37Ra | >100 µg/mL |
| COCN1OCC(N)C1=O | MIC |  |  |  |  |  | 3000 µM |
| CCCCC[C@]1(C(=O)CCC)CC[C@@]2(c3ccccc3)ON12 | MIC |  |  |  |  | H37Ra | 100 µg/mL |
| COc1c(OC)c2occc2c2oc(=O)ccc12 | EC50 |  |  |  | resazurin | H37Ra | 84.2 µg/mL |
| CC(=O)N1N=C(c2sc3ccc(Cl)cc3c2Cl)OC1c1ccccc1 | inhibition |  |  | 40 µg/mL | agar diffusion / agar |  | 27% |
| CCCCCCCCC1(C)SC(=O)C(C)=C1O | MIC |  |  |  |  | H37Rv | 500 µM |
| CCCCOc1ccc(N=c2scc(C)n2-c2ccc(ON(C)C)cc2)cc1 | MIC |  |  |  |  | H37Rv | >32 µg/mL |
| Cc1[nH]n(C(=O)c2sc3ccc(Cl)cc3c2Cl)c(=O)c1N=Nc1ccccc1[N+](=O)[O-] | inhibition |  |  | 40 µg/mL | agar diffusion / agar |  | 53% |
| CCCCCCCCCCCCC1(C)SC(=O)C(C)=C1O | MIC |  |  |  |  | H37Rv | 500 µM |
| CC1=CC(=O)c2c(O)cccc2C1=O | MIC |  |  |  | resazurin | H37Rv | 21.3 µM |
| Cc1cc(O)c(C(C)C)cc1N1C(=Cc2ccoc2)C(=O)N=C1c1ccccc1 | inhibition |  |  | 100 µg/mL |  | H37Rv | inactive |
| COc1nc2ccc(Br)cc2cc1[C@@H](c1ccccc1)[C@@](O)(CCN(C)C)c1cccc2ccccc12 | MIC50 |  |  |  |  |  | 0.03 µg/mL |
| Cc1cc(O)c(C(C)C)cc1N1C(=O)C(Cl)C1c1cccc(O)c1 | inhibition |  |  | 100 µg/mL |  | H37Rv | inactive |
| COc1c2ccoc2cc2oc(=O)ccc12 | EC50 |  |  |  | resazurin | H37Ra | 27 µg/mL |
| CCCOc1ccc(N=C2SCC(=O)N2c2ccc(OCCC)cc2)cc1 | MIC |  |  |  |  | H37Rv | >32 µg/mL |
| COc1cc2c(c(OC)c1OC)C(=O)CC(c1ccc(O)cc1)O2 | MIC |  |  |  |  | H37Ra | 606 µM |
| CCCC(=O)[C@]1(CCC2OCCO2)CC[C@@]2(c3ccccc3)ON12 | MIC |  |  |  |  | H37Ra | >200 µg/mL |
| NC(=S)N/N=C(\CC(=O)c1ccc([N+](=O)[O-])cc1)C(=O)Nc1ncc([N+](=O)[O-])s1 | inhibition |  |  | 12.5 µg/mL | BACTEC | H37Rv | 39% |
| O=c1cc(-c2ccc(O)c(O)c2)oc2cc(O)cc(O)c12 | MIC |  |  |  |  | H37Ra | 699.3 µM |
| CONC(=O)CN1OCC(N)C1=O | MIC |  |  |  |  |  | >2500 µM |
| CC1S[C@H](c2ccc3c(c2)OCO3)N(c2nc(N3CCN(C)CC3)n[nH]2)C1=O | MIC |  |  |  | resazurin | H37Rv | 3.13 µg/mL |
| CCN1OCC(N)C1=O | MIC |  |  |  |  |  | >2500 µM |
| CC1S[C@H](c2ccccc2)N(c2nc(N3CCOCC3)n[nH]2)C1=O | MIC |  |  |  | resazurin | H37Rv | 8 µg/mL |
| CC1=C(O)C(C)(C2CCCCC2)SC1=O | MIC |  |  |  |  | H37Rv | >1000 µM |
| CC1=C(N)C(=O)C2=C(C1=O)N1C[C@H]3[C@H](N3C)[C@]1(O)[C@@H]2COC(N)=O | MIC |  |  |  | BACTEC | H37Rv | 0.8 µg/mL |
| O=C(CSc1nnc(-c2ccc3ncccc3c2)o1)Nc1ccc(F)cc1 | MIC |  |  |  | agar | H37Rv | 25 µg/mL |
| CC(=O)Oc1cccc2c1C(=O)C=C(C)C2=O | MIC |  |  |  | resazurin | H37Rv | 34.8 µM |
| COc1c(O)cc2c(c1O)C(=O)C1=C(CCCC1)C2=O | inhibition |  |  | 12.5 µg/mL | BACTEC | H37Rv | 8% |
| CO[C@H]1/C=C/O[C@@]2(C)Oc3c(C)c(O)c4c(O)c(c(/C=N/N5CCN(C)CC5)c(O)c4c3C2=O)NC(=O)/C(C)=C\C=C\[C@H](C)[C@H](O)[C@@H](C)[C@@H](O)[C@@H](C)[C@H](OC(C)=O)[C@@H]1C | MIC90 | pH 6.0 | Pyrazinamide-resistant |  | resazurin |  | <0.016 µM |
| CC(C)(O)C1CCC2(C)C1C(O)CC1(C)C2CCC2C3(C)CCC(O)C(C)(C)C3C(O)CC21C | MIC bound |  |  |  | BACTEC | H37Rv | >12.5 µg/mL |
| Cc1cc(O)c(C(C)C)cc1N1C(=O)C(C)SC1c1cccc(O)c1 | inhibition |  |  | 100 µg/mL |  | H37Rv | inactive |
| O=C1c2c(O)cccc2-c2nn(CCNCCO)c3ccc(NCCNCCO)c1c23 | inhibition |  |  | 12.5 µg/mL | BACTEC | H37Rv | 95% |
| Cc1nn(-c2ccccc2)c2c1C(c1ccc(F)cc1)c1c(nc(=O)[nH]c1N)O2 | inhibition |  |  | 62.5 µg/mL |  | H37Rv | 93% |
| CN(C(=S)S(=O)(=O)C12CC3CC(CC(C3)C1)C2)c1ccccc1 | inhibition |  |  | 128 µg/mL | BACTEC | H37Rv | 93% |
| O=C(OCCCl)c1cnccn1 | MIC90 | pH 6.0 | Pyrazinamide-resistant |  | resazurin |  | >536 µM |
| Nc1cc2c(=O)c3cc(Cl)cc(Cl)c3[nH]c2c2c1C(=O)c1ccccc1C2=O | inhibition |  |  | 12.5 µg/mL | BACTEC | H37Rv | -3% |
| Cc1nn(-c2ccccc2)c2c1C(c1ccc(O)cc1)c1c(nc(=O)[nH]c1N)O2 | inhibition |  |  | 62.5 µg/mL |  | H37Rv | 10% |

MIC50, MIC90 and the like: level of inhibition, or share of isolates inhibited. Rows are shuffled and stem from different studies. An empty or dashed field is not shown. ECn: concentration that inhibits the pathogen or its effect by n%. MIC bound comes from a single tested concentration. For "inactive" no cut-off is given.